Results taken from PMC10109501, “Cryo-EM structures and binding of mouse and human ACE2 to SARS-CoV-2 variants of concern indicate that mutations enabling immune escape could expand host range” (2023).
“And” between values parts separate entries of the source, which are not always exact repeats. Equal values may be shown once.

Target: mouse ACE2-Fc (residues 19-615, mouse IgG2a Fc fusion) (mouse) (UniProt Q8R0I0)
Test: BLI

Omicron Spike proteins
fold stronger affinity compared to Beta: 14 fold and 20 fold
